Pooled drug test results. Numbers come from NIAID ChemDB, via PubChem.

All rows: whole-cell or culture tests; agent: Varicella zoster virus; method: plaque count; read-out: EC50

An empty or dashed field is not shown. ECn: concentration that inhibits the pathogen or its effect by n%. Conditions beyond the fields shown may differ between rows.

smiles,strain,cell line,result
C=Cc1cn([C@@H]2O[C@H](CO)[C@@H](O)[C@@H]2O)c(=O)[nH]c1=O,Kawaguchi acyclovir-resistant mutant A8,-,0.1055 µg/mL
OC[C@H]1O[C@H](c2cc(Br)c(F)cc2F)C[C@@H]1O,(TK+)/OKA,HEL,>200 µM
Cc1c(Br)cc(Br)c2ncc(CSCc3ccc(Cl)c(Cl)c3)n12,07/1 (TK-),HEL,2.8 µg/mL
Cn1cc(C(=O)NCc2ccc(Cl)cc2)c(=O)c2cc(CN3CCOCC3)ccc21,DY varicella isolate,HFF,0.8 µM
OC[C@H]1O[C@@H](c2cc(I)c(F)cc2F)C[C@@H]1O,(TK-)07/1,HEL,>200 µM
Cc1c(Br)cc(Br)c2ncc(CSCc3ccc(Cl)cc3)n12,OKA (TK+),HEL,>2 µg/mL
Cc1cc([C@@H]2C[C@H](O)[C@@H](CO)O2)c(F)cc1Cl,(TK-)/YS/R,HEL,>200 µM
Cc1c(Br)cc(Br)c2ncc(CSC(C)c3cccs3)n12,OKA (TK+),HEL,>2 µg/mL
Cc1cn([C@@H]2O[C@H](CO)[C@@H](O)[C@@H]2O)c(=O)[nH]c1=O,Kawaguchi acyclovir-resistant mutant A8,-,0.0072 µg/mL
Nc1ccn([C@@H]2O[C@H](CO)[C@@H](O)[C@@H]2O)c(=O)n1,YS-W1 H13,HEL,0.13 µg/mL
O=C(NCc1ccc(Cl)cc1)c1c[nH]c2ccc(C#CCO)cc2c1=O,STE,-,0.1 µM
O=c1[nH]c(=O)n([C@H]2C[C@H](O)[C@@H](CO)O2)cc1I,YS-W1 H13,HEL,0.3 µg/mL
Cc1cc([C@H]2C[C@H](O)[C@@H](CO)O2)c(F)cc1Cl,(TK+)/OKA,HEL,>200 µM
Cc1c(Br)cc(Br)c2ncc(CSCc3ccco3)n12,07/1 (TK-),HEL,>20 µg/mL
O=[N+]([O-])c1cc([C@H]2C[C@H](O)[C@@H](CO)O2)c(F)cc1F,(TK+)/OKA,HEL,87 µM
Cc1c(Br)cc(Br)c2ncc(CSCc3cccs3)n12,YS (TK+),HEL,>2 µg/mL